Compound potency records, mixed from different reports. Data source: NIAID ChemDB in PubChem.

All rows: growth or infection tests; species: Candida tropicalis

Conditions beyond the fields shown may differ between rows. A number after MIC or MFC names an inhibition level or a share of isolates. Blank or dashed fields: not listed here.

compound	strain or isolate	method	setting	read-out	value
COc1cc(O)c2c(c1)C(=O)c1c(cc3c(c1O)-c1c(cc(C)c(C(=O)NC(CO)C(=O)O)c1O)[C@H](OC1OC(C)C(O)C(OC4OCC(O)C(O)C4O)C1O)C3O)C2=O	IFO 10241			MIC	12.4 µg/mL
C[C@@H](c1ncncc1F)[C@](O)(Cn1cncn1)c1ccc(F)cc1F	54 isolates			MIC50	0.06 µg/mL
Clc1ccc(CSC(Cn2ccnc2)c2ccc(Cl)cc2Cl)cc1	19 isolates			MIC90	4 µg/mL
CCCCCCCCCCCCCCCCCCCO	ATCC 750	broth dilution		MLC	200 µg/mL
Clc1ccc(COC(Cn2ccnc2)c2ccc(Cl)cc2Cl)c(Cl)c1	LM 759	broth dilution		MFC100	32 µg/mL
Oc1cc(Cl)cc2cccnc12	ATCC 750		48 h	MIC	6.2 µg/mL
CC(=O)N1CCN(c2ccc(OC[C@H]3CO[C@](Cn4ccnc4)(c4ccc(Cl)cc4Cl)O3)cc2)CC1	19 isolates			MIC50	1 µg/mL
O=C(O)c1cc(O)c(O)c(O)c1	ATCC 750	broth dilution		MIC	100 µg/mL
Nc1nc(=O)n([C@H]2CS[C@@H](CO)O2)cc1F	54 isolates			MIC90	1 µg/mL
CC1(C)C=C2C3CCC4[C@@]5(C)CCC(=O)C(C)(C)C5CC[C@@]4(C)[C@]3(C)CC[C@@]2(C(=O)O)CC1	ATCC 750	broth dilution		MIC	>200 µg/mL
Clc1ccc(C(Cn2ccnc2)OCc2ccc(Sc3ccccc3)cc2)c(Cl)c1	19 isolates			MIC90	8 µg/mL
C[C@@H]1O[C@@H](Oc2c(-c3ccc(O)c(O)c3)oc3cc(O)cc(O)c3c2=O)[C@H](O)[C@H](O)[C@H]1O	ATCC 750	broth dilution		MIC	100 µg/mL
Oc1cc(Cl)cc2cc(Cl)cnc12	ATCC 750		48 h	MIC	3.1 µg/mL
Clc1ccc(COC(Cn2ccnc2)c2ccc(Cl)cc2Cl)c(Cl)c1	19 isolates			MIC50	4 µg/mL
Oc1cccc2cc(Cl)cnc12	ATCC 750		24 h	MIC	25 µg/mL
Oc1cc(O)c2c(c1)OC(c1ccc(O)c(O)c1)[C@@H](O)C2	Clinical isolate 3	broth dilution		MIC50	>128 µg/mL
COc1cc(C[C@H](C)[C@H](C)Cc2ccc(O)c(O)c2)ccc1O	CCC 131-1997	broth dilution		MIC80	62.5 µg/mL

The first 2 rows once more:

compound | strain or isolate | method | setting | read-out | value
COc1cc(O)c2c(c1)C(=O)c1c(cc3c(c1O)-c1c(cc(C)c(C(=O)NC(CO)C(=O)O)c1O)[C@H](OC1OC(C)C(O)C(OC4OCC(O)C(O)C4O)C1O)C3O)C2=O | IFO 10241 |  |  | MIC | 12.4 µg/mL
C[C@@H](c1ncncc1F)[C@](O)(Cn1cncn1)c1ccc(F)cc1F | 54 isolates |  |  | MIC50 | 0.06 µg/mL